Laboratory results published in PubChem BioAssay (NCATS).
Only a part is listed here, and it is no random draw. Records with an inconclusive call do not appear. Some salts and complexes are drawn in separate pieces, as the source files them; their charges need not balance. The source made the active and inactive calls. Unless noted, calls come from the whole dose curve; as a rule, active = well fitted curve in the direction sought with a large enough effect; inconclusive = small, poorly fitted or top-dose-only effect, or another doubt; inactive = no such curve, though single readings can be large; an effect the other way counts as inactive or inconclusive.

Tests used:
[1] = NS1 protein of Zika virus - qHTS assay to identify small molecule inhibitors in human HEK 293 cells (AID 1347053); settings: HEK293 ZIKV MR766 infection, NS1 TR-FRET, 24 h; at 46.1 µM (top of the series) unless noted;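 note: plate controls were infected untreated cells for no effect and uninfected cells for full effect; nearly all actives have a fitted effect of over 55% in size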
How it was run: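 HEK 293 cells, seeded 20 h at 37 C, were pretreated with compound 1 h, then infected with ZIKV MR766 (MOI = 0.5) for 24 h. NS1 was read by TR-FRET with two anti-NS1 antibodies, normalized to uninfected and infected wells.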

[2] = qHTS for Inhibitors of the Functional Ribonucleoprotein Complex (vRNP) of Lassa (LASV) Arenavirus: LASV Primary Screen - GLuc reporter signal (AID 1347082; calls by dose curve; tested in HEK293 reporter line; note: % is set by controls: 0 for no effect and ±100 for the full control effect; nearly all actives have a fitted effect of over 60% in size); settings: LASV minigenome vRNP, Gaussia luciferase reporter; at 57.5 µM (top of the series) unless noted
[3] = qHTS for Inhibitors of the Functional Ribonucleoprotein Complex (vRNP) of Lassa (LASV) Arenavirus: Viability assay - alamar blue signal for LASV Primary Screen (AID 1347083; calls by dose curve; tested in HEK293 reporter line; note: % is set by controls: 0 for no effect and ±100 for the full control effect; nearly all actives have a fitted effect of over 80% in size); settings: cell viability, alamar blue fluorescence (LASV minigenome counter-screen); at 57.5 µM (top of the series) unless noted
[4] = qHTS for Inhibitors of the Functional Ribonucleoprotein Complex (vRNP) of Lymphocytic Choriomeningitis Arenaviruses (LCMV): Viability assay - alamar blue signal for LCMV Primary Screen (AID 1347085; calls by dose curve; tested in HEK293 reporter line; note: % is set by controls: 0 for no effect and ±100 for the full control effect; nearly all actives have a fitted effect of over 80% in size); settings: alamar blue viability counter-screen, LCMV vRNP screen cells; at 57.5 µM (top of the series) unless noted
[5] = target: Nucleoprotein (Lymphocytic choriomeningitis virus (strain Armstrong)) (UniProt P09992); test: qHTS for Inhibitors of the Functional Ribonucleoprotein Complex (vRNP) of Lymphocytic Choriomeningitis Arenaviruses (LCMV): LCMV Primary Screen - GLuc reporter signal (AID 1347086; calls by dose curve; note: % is set by controls: 0 for no effect and ±100 for the full control effect; nearly all actives have a fitted effect of over 70% in size); settings: LCMV minigenome vRNP cell assay, Gaussia luciferase reporter; at 57.5 µM (top of the series) unless noted
[6] = test system: Zika virus NS2B-NS3 protease; test: Primary screen GU AMC qHTS for Zika virus inhibitors (AID 1347154); settings: Zika NS2B-NS3 unlinked protease, AMC fluorogenic substrate; at 54.1 µM (top of the series) unless noted;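 note: 0% = no-inhibitor control and -100% = no-enzyme control; nearly all actives have a fitted effect of over 70% in size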
How it was run: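 Unlinked Zika NS2B hydrophilic domain–NS3 protease complex at 25 nM in 10 mM Tris-HCl pH 8.0, 0.01% Tween 20, with an AMC peptide substrate. Fluorescence change (340/450 nm) over 15 min at room temperature, normalized to controls, fitted to 4-parameter Hill.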

[7] = Primary qHTS for inhibitors of SARS-S pseudo-typed particle cell entry (AID 1479145; calls by dose curve; note: % is set by controls: 0 for no effect and ±100 for the full control effect; nearly all actives have a fitted effect of over 45% in size); settings: SARS-S pseudotyped particle cell entry, luciferase reporter; at 57.1 µM (top of the series)
[8] = Primary qHTS for Huh7 cytotoxicity: counterscreen for inhibitors of MERS-S pseudotyped particle cell entry (AID 1479147; calls by dose curve; for activity change, negative = cytotoxicity: % is set by controls: 0 for no effect and ±100 for the full control effect); settings: cell viability read-out; activity change, negative = cytotoxicity: at 57.1 µM (top of the series)
[9] = test system: Zika virus NS2B-NS3 protease (linked construct); test: Primary screen NINDS Rhodamine qHTS for Zika virus inhibitors (AID 1347160); settings: purified NS2B-NS3 protease, Rhodamine110 substrate fluorescence; at 57.1 µM (top of the series) unless noted; note: % is set by controls: 0 for no effect and ±100 for the full control effect; nearly all actives have a fitted effect of over 55% in size
Text: Avindra Nath, Ph.D., National Institute of Neurological Disorders and Stroke (NINDS), Bethesda, MD
Radhakrishnan Padmanabhan, Ph.D., Georgetown University (GU), Washington D.C.
Zika Virus causes congenital defects, including microcephaly and is associated with Guillain-Barre syndrome, eningoencephalitis and myelitis in infected adult. […] Using a target-based approach, we hope to establish a screening paradigm to uncover novel, cell-active NS2B-NS3 protease (Zika Virus) specific inhibitors from NCATS' collection of small molecules using qHTS.
Four assay panel was created to identify potential Zika Virus inhibitors. […]
Briefly, 3 microL of enzyme (25 nM final concentration), in assay buffer (10 mM Tris-HCl pH 8.0 with 0.01% Tween 20) were dispensed into a 1,536-well solid-bottom black plate (Greiner Bio One, Monroe, NC). […] Plates were then immediately read on a ViewLux High-throughput CCD imager (PerkinElmer, Waltham, MA) equipped with FITC fluorescence optics (480(20) nm excitation, 540(25) nm emission), then incubated (room temperature, protected from light) for 15 minutes (~15% conversion). The change in fluorescence intensity over the 15-minute reaction period was normalized against no-inhibitor and no-enzyme controls and the resulting percent inhibition data were fitted to a 4-parameter Hill equation. […]

[10] = test system: Zika virus NS2B-NS3 protease (unlinked complex); test: Primary screen GU Rhodamine qHTS for Zika virus inhibitors: Unlinked NS2B-NS3 protease assay (AID 1347159); settings: Recombinant ZIKV NS2B-NS3 protease, Rhodamine110 substrate fluorescence; at 57.1 µM (top of the series); note: % is set by controls: 0 for no effect and ±100 for the full control effect; nearly all actives have a fitted effect of over 60% in size
How it was run: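 Noncovalent NS2B hydrophilic domain–NS3 protease domain complex (25 nM) preincubated 15 min at room temperature with compounds (up to 114 microM) in 10 mM Tris-HCl pH 8.0, 0.01% Tween 20; 1.5 microM Rhodamine110 substrate added, fluorescence change over 15 min fitted to Hill equation.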

Cc1cccc([N+](=O)[O-])c1[N+](=O)[O-]
inactive: activity change, negative = inhibition [1] 3.19% [at 92.8 µM] | activity change, negative = inhibition [2] -19.4% [at 115 µM] | activity change, negative = reduced viability [3] -6.38% [at 115 µM] | activity change, negative = lower viability [4] 12.8% [at 115 µM] | activity change, negative = inhibition [5] 11.5% [at 115 µM]

C/C1=C2N=C(/C=C3N=C(/C(C)=C4\[N-][C@@](C)([C@@H]5N=C1[C@](C)(CCC(=O)NC[C@@H](C)OP(=O)([O-])O[C@H]1[C@@H](O)[C@@H](n6cnc7cc(C)c(C)cc76)O[C@@H]1CO)[C@H]5CC(N)=O)[C@@](C)(CC(N)=O)[C@@H]4CCC(N)=O)[C@@](C)(CC(N)=O)[C@@H]\3CCC(N)=O)C(C)(C)[C@@H]/2CCC(N)=O.[C-]#N.[Co+3]
inactive: activity change, negative = inhibition [1] 8.66% | activity change, negative = inhibition [2] -4.82% | activity change, negative = reduced viability [3] -29.5% | activity change, negative = lower viability [4] -30.3% | activity change, negative = inhibition [5] -3.53% | activity change, negative = inhibition [6] -10.9% | activity change, negative = inhibition [7] -46.7% | outcome [8]

OCCSCCO
inactive: activity change, negative = inhibition [1] 3.4% | activity change, negative = inhibition [2] 7.03% | activity change, negative = reduced viability [3] 1.02% | activity change, negative = lower viability [4] -3.6% | activity change, negative = inhibition [5] -2.09% | activity change, negative = inhibition [6] 1.36%

CCOP(=O)(CC)Oc1ccc([N+](=O)[O-])cc1 (stereo not drawn)
inactive: activity change, negative = inhibition [1] -16.2% | activity change, negative = reduced viability [3] -18.9% | activity change, negative = inhibition [6] 2.12% | activity change, negative = inhibition [9] 10.1% | activity change, negative = inhibition [7] -13.4% | activity change, negative = cytotoxicity [8] 2.62%

CC(C)OP(=O)(F)OC(C)C
inactive: activity change, negative = inhibition [7] -25.4% | outcome [8]

C/C1=C2N=C(/C=C3N=C(/C(C)=C4\N=C(C(CC(N)=O)C4(C)CCC(=O)NCC(C)OP(=O)([O-])OC4C(CO)OC(n5cnc6cc(C)c(C)cc65)C4O)C4(C)N=C1C(CCC(N)=O)C4(C)CC(N)=O)C(CCC(N)=O)C\3(C)C)C(CCC(N)=O)C/2(C)CC(N)=O.[C-]#N.[Co] (stereo not drawn)
inactive: activity change, negative = inhibition [10] 1.94% | activity change, negative = inhibition [9] 2.71% [at 33.1 µM]

O=[N+]([O-])c1cccc([N+](=O)[O-])c1
inactive: activity change, negative = inhibition [1] -28.3% [at 92.8 µM] | activity change, negative = inhibition [6] -16.6% [at 104 µM] | activity change, negative = inhibition [7] -9.48% | activity change, negative = cytotoxicity [8] 1.73%

CC1=C2[N-][C@@](C)([C@@H]3N=C(C(C)=C4N=C(C=C5N=C1[C@@](C)(CC(N)=O)[C@H]5CCC(N)=O)C(C)(C)[C@H]4CCC(N)=O)[C@](C)(CCC(=O)NC[C@@H](C)OP(=O)([O-])O[C@H]1[C@@H](O)[C@@H](n4cnc5cc(C)c(C)cc54)O[C@H]1CO)[C@H]3CC(N)=O)[C@@](C)(CC(N)=O)[C@@H]2CCC(N)=O.[C-]#N.[Co+3]
inactive: activity change, negative = inhibition [1] 3.91% [at 20.1 µM] | activity change, negative = inhibition [2] -4.89% | activity change, negative = reduced viability [3] -26.1% | activity change, negative = inhibition [5] -14.8% | activity change, negative = inhibition [6] 0.793% [at 25.8 µM]
